Measured values from several laboratories, pooled; numbers as filed in NIAID ChemDB.

Common to all: growth or infection tests; organism: HIV-1

Two numbers with a dash give a range or band.

SMILES	endpoint	setting	strain	method	mutations	cells	result
Cc1ccc(Nn2c(-c3ccccc3)c(C)[nH]c2=S)cc1C	EC50	-	IIIB	cytopathic effect / MTT	-	MT-4	9.3 µM
COCC[C@@]1(C)C(=O)c2c(O)c(=O)c(C(=O)NCc3ccc(F)cc3F)cn2C[C@@H]1OC	EC50	100% human serum	NL4-3	GFP	-	MT-4	0.11 µM
[O-][n+]1onc2ncnc(N3CC[N+]4(CC3)CC[N+]3(CCN(c5ncnc6no[n+]([O-])c56)CC3)CC4)c21	EC50	-	6S	cytopathic effect / XTT	-	MT-2	1.4 µM
O=C(NCCO)c1[nH]c2ccc(Cl)cc2c1S(=O)(=O)c1ccccc1	EC50	-	BAL R5	p24	-	Macrophage + Macrophages	0.4 µM
C[C@@]12CCCCC[C@]1(O)Cn1cc(C(=O)NCc3cccc(Cl)c3F)c(=O)c(O)c1C2=O	EC50	0% human serum	NL4-3	GFP	-	MT-4	0.0005 µM
O=C1Cc2c(cccc2-c2ccccc2)C(=O)N1O	EC50	-	IIIB	cytopathic effect / absorbance	-	CEM-SS	>10 µM
COC(=O)C[C@H](NP(=O)(N[C@@H](CC(=O)OC)C(=O)OC)OC[C@H]1O[C@@H](n2cc(C)c(=O)[nH]c2=O)C[C@@H]1N=[N+]=[N-])C(=O)OC	EC50	-	RF	antigen	-	C8166	0.9 µM
Cc1cc(/C=C/C#N)cc(C)c1Oc1nc(NC2CCN(Cc3ccccn3)CC2)nc2ccsc12	EC50	-	RES056	MTT	-	MT-4	0.122 µM
Cc1cc(C)cc(Sc2c(C(=O)NCCO)[nH]c3ccc(Cl)cc23)c1	EC50	-	-	cytopathic effect / MTT	RT-Y181C	MT-4	0.009 µM
CC1=C(C(=O)Nc2cc(C(=O)OC(C)C)c(Cl)cc2F)SCCO1	EC50	-	IIIB	cytopathic effect / XTT	-	CEM + CEM-SS	0.0035 µg/mL
NC(=O)c1ccccc1NC(=O)CSc1nnnn1-c1cccc2ccccc12	EC50	-	-	p24	-	MT-4	<10 µM
C/C(=C(/CCO)SS/C(CCO)=C(\C)N(C=O)Cc1cnc(C)nc1N)N(C=O)Cc1cnc(C)nc1N	EC50	-	ADA	p24	-	Macrophage + Monocytes/macrophages	>100 µM
Nc1nc(=O)n([C@H]2C=C[C@@H](CO)O2)cc1F	EC50	-	BRU-184V	RT activity	RT-M184V	PBMC	<0.15 µM
Cc1ccc(S(=O)(=O)c2c(C(=O)NNCCO)[nH]c3ccc(Cl)cc23)cc1	EC50	-	BAL R5	p24	-	Macrophage + Macrophages	11 µM
Cc1cn([C@H]2C[C@H](N=[N+]=[N-])[C@@H](CO)O2)c(=O)[nH]c1=O	EC50	-	SF162	luciferase	-	TZM-bl	0.00237 µM
N#CSc1ccc2nc(NC(=O)CN3C(=O)S/C(=C/c4ccc(O)cc4)C3=O)sc2c1	EC50	-	IIIB	MTT	-	MT-4	>56 µM
COC(=O)[C@H](C)NP(=O)(N[C@@H](C)C(=O)OC)OC[C@H]1O[C@@H](n2cc(C)c(=O)[nH]c2=O)C[C@@H]1N=[N+]=[N-]	EC50	-	RF	antigen	-	C8166	2 µM
Cc1cccnc1CN(C)Cc1nc2ccccc2[nH]1	EC50	-	IIIB	syncytia	-	C8166	2.126 µM
CC(C)(C)NC(=O)[C@@H]1C[C@H](O)CN1C(=O)[C@@H](O)[C@H](Cc1ccccc1)NC(=O)[C@H](CC(N)=O)NC(=O)OCc1ccccc1	EC50	-	-	antigen	-	MT-4	10–30 µg/mL
Cc1cc(C)c(-n2nnnc2SCC(=O)Nc2ccc(Br)cc2F)c(C)c1	EC95	-	-	p24	-	MT-4	<10 µM
CN1CCN(c2ccnc3nc(CN(C)C4CCCc5cccnc54)[nH]c23)CC1	EC50	-	IIIB	syncytia	-	C8166	0.025 µM
CC(C)(C)NC(=O)[C@@H]1CCCN1C(=O)[C@@H](O)[C@H](Cc1ccccc1)NC(=O)[C@H](CC(N)=O)NC(=O)COc1ccc([N+](=O)[O-])cc1	EC50	-	-	antigen	-	MT-4	4.5 µg/mL
Cc1cc(C#N)cc(C)c1Oc1nc(NC2CCC(NCc3ccccc3)CC2)nc2ccsc12	EC50	-	RES056	MTT	-	MT-4	>2.98 µM
C[C@]12CCCCC[C@]1(O)Cn1cc(C(=O)NCc3ccc(F)cc3F)c(=O)c(O)c1C2=O	EC50	100% human serum	NL4-3	GFP	-	MT-4	1.114 µM
CC1=C(C(=O)Nc2ccc(Cl)c(C(=O)OC(C)C)c2)SCCO1	EC50	-	IIIB	cytopathic effect / XTT	-	MT-2/MT2(HIV-1) + MT-2	0.0026 µg/mL
CN[C@@H]1[C@H](O[C@@H]2OC[C@@H](O)[C@H](O)[C@H]2O)[C@@H](O)[C@H](O[C@H]2c3cc(C)c(C(=O)N[C@H](C)C(=O)O)c(O)c3-c3c(cc4c(c3O)C(=O)c3cc(OC)cc(O)c3C4=O)[C@@H]2O)O[C@@H]1C	EC50	-	Clade C ETH2220 (R5-tropic)	p24 / ELISA	-	PBMC	10 µM
Cc1cccc(Sc2c(C(=O)NCCO)[nH]c3ccc(Cl)cc23)c1	EC50	-	IIIB	cytopathic effect / MTT	-	C8166	0.08 µM
CC(C)(CN)NC(=O)[C@@H]1CCCN1C(=O)[C@@H](O)[C@H](Cc1ccccc1)NC(=O)[C@H](CC(N)=O)NC(=O)OCc1ccccc1	EC50	-	-	antigen	-	MT-4	>100 µg/mL
Cc1ccccc1Sc1c(C(=O)NNCCO)[nH]c2ccc(Cl)cc12	EC50	-	IIIB	cytopathic effect / MTT	-	C8166	0.3 µM
Clc1cccc(Nn2cnc3c2CCCC3)c1	EC50	-	NL4-3	cytopathic effect / MTT	-	MT-4	>67.29 µM
N#CSc1ccc2nc(NC(=O)CN3C(=O)S/C(=C/c4ccc(F)cc4)C3=O)sc2c1	EC50	-	IIIB	MTT	-	MT-4	>100 µM
CN(CC(=O)Nc1ccccc1[N+](=O)[O-])c1nnnn1-c1cccc2ccccc12	EC50	-	-	p24	-	MT-4	<10 µM
N#Cc1c(-c2ccc(Cl)cc2)c2c(n([C@@H]3O[C@H](CO)[C@@H](O)[C@H](O)[C@H]3O)c1=S)-c1ccccc1C2	EC50	-	-	cytopathic effect / MTT	-	MT-4	0.166 µM
CN(Cc1ncccc1CCC#N)Cc1nccc2ccccc12	EC50	-	IIIB	syncytia	-	C8166	2.811 µM
N#CSc1ccc2nc(NC(=O)CN3C(=O)S/C(=C/c4cccc(Oc5ccccc5)c4)C3=O)sc2c1	EC50	-	IIIB	MTT	-	MT-4	>100 µM
COC(=O)C(=O)N1CCC[C@H]1C(=O)N[C@@H](Cc1ccccc1)C(=O)Nc1ccc(OCC(=O)N[C@@H](CC(N)=O)C(=O)N[C@@H](Cc2ccccc2)[C@H](O)C(=O)N2CCC[C@H]2C(=O)NC(C)(C)C)cc1	EC50	-	-	antigen	-	MT-4	>100 µg/mL
COC(=O)c1ccc(CN2CCC(Nc3nc(Oc4c(C)cc(C#N)cc4C)c4ccsc4n3)CC2)cc1	EC50	-	IIIB	MTT	NNRTI-resistant (RT K103N)	MT-4	0.0291 µM
CCCCOC(=O)c1cc(NC(=O)C2=C(C)OCCS2)ccc1Cl	EC50	-	IIIB	cytopathic effect / XTT	-	CEM	0.0001 µg/mL
Cc1cccc(S(=O)(=O)c2c(C(=O)NCCO)[nH]c3ccc(Cl)cc23)c1	EC50	-	IIIB	cytopathic effect / MTT	-	MT-4	0.003 µM
Nc1ccn([C@H]2C[C@@H](CO)[C@H](O)[C@@H]2O)c(=O)n1	EC50	-	-	-	-	PBMC	53 µM
O=C1Cc2ccc(-c3ccco3)cc2C(=O)N1O	EC50	-	IIIB	cytopathic effect / absorbance	-	CEM-SS	>10 µM
Cc1cc(/C=C/C#N)cc(C)c1Oc1nc(NC2CCN(Cc3ccccc3Br)CC2)nc2ccsc12	EC50	-	RES056	MTT	-	MT-4	0.351 µM
O=C1Cc2cc(-c3ccc(F)c(F)c3)ccc2C(=O)N1O	EC50	-	IIIB	cytopathic effect / absorbance	-	CEM-SS	>10 µM
COCC[C@]1(C)C(=O)c2c(O)c(=O)c(C(=O)NCc3ccc(F)cc3F)cn2C[C@@H]1OC	EC50	0% human serum	NL4-3	GFP	-	MT-4	0.0013 µM
CCN(CC)C(=S)SSC(=S)N(CC)CC	EC50	-	RF	cytopathic effect / XTT	-	CEM + CEM-SS	>3.9 µM
CC(C)(C)NC(=O)[C@@H]1CCCN1C(=O)[C@@H](O)[C@H](Cc1ccccc1)NC(=O)[C@H](CC(N)=O)NC(=O)COc1cccc([N+](=O)[O-])c1	EC50	-	-	antigen	-	MT-4	6–10 µg/mL
Cc1ccc(C)n1-c1ccc(C(=O)O)c(O)c1	EC90	-	93TH051 X4R5 CLADE E	luciferase / cell fusion	-	PBMC/5.25M7	17.76 µM
CN(Cc1nc2ccccc2[nH]1)Cc1ncccc1CCCNC(=O)OC(C)(C)C	EC50	-	IIIB	syncytia	-	C8166	3.821 µM
CN(C)c1ccc(/C=C2/SC(=O)N(CC(=O)Nc3nc4ccc(SC#N)cc4s3)C2=O)cc1	EC50	-	IIIB	MTT	-	MT-4	>61 µM
Cc1cc(C#N)cc(C)c1Oc1nc(NC2CCN(Cc3ccc(S(C)(=O)=O)cc3)CC2)nc2sccc12	EC50	-	IIIB	MTT	NNRTI-resistant (RT F227L V106A)	MT-4	0.00868 µM
Cc1cccc(Nn2c(-c3ccccc3)c(C)[nH]c2=S)c1	EC50	-	IIIB	cytopathic effect / MTT	-	MT-4	1.56 µM
COCCOC(=O)c1cc(NC(=O)C2=C(C)OCCS2)ccc1Cl	EC50	-	IIIB	cytopathic effect / XTT	-	CEM	0.00034 µg/mL
Cc1ccccc1S(=O)(=O)c1c(C(=O)NCCO)[nH]c2ccc(Cl)cc12	EC50	-	BAL R5	p24	-	Macrophage + Macrophages	2 µM
Cc1cc(C#N)cc(C)c1Oc1nc(NC2CCN(Cc3ccc(S(N)(=O)=O)cc3)CC2F)nc2ccsc12	EC50	-	IIIB	MTT	NNRTI-resistant (RT Y188L)	MT-4	0.0139 µM
COC(=O)CCc1cccnc1CN(C)Cc1nc2ccccc2[nH]1	EC50	-	IIIB	syncytia	-	C8166	15.5 µM
COc1cccc(Nn2c(-c3ccccc3)c(C)[nH]c2=S)c1	EC50	-	SO561945 (RT K103N Y181C)	cytopathic effect / MTT	RT-K103N Y181C	MT-4	>38.02 µM
O=C1Cc2cc(-c3ccoc3)ccc2C(=O)N1O	EC50	-	IIIB	cytopathic effect / absorbance	-	CEM-SS	>10 µM
N=C1Sc2ccccc2C2=NCCCN12	EC50	-	RU132	β-galactosidase	-	PBMC	0.2 µM
Cc1cc(C)cc(S(=O)(=O)c2c(C(=O)NCCO)[nH]c3ccc(Cl)cc23)c1	EC50	-	IIIB	cytopathic effect / MTT	-	MT-4	0.0008 µM
COC(=O)[C@@H](NP(=O)(N[C@H](C(=O)OC)C(C)C)OC[C@H]1O[C@@H](n2cc(C)c(=O)[nH]c2=O)C[C@@H]1N=[N+]=[N-])C(C)C	EC50	-	RF	antigen	-	C8166	0.1 µM
O=C1Cc2c(cccc2-c2ccc(F)cc2F)C(=O)N1O	EC50	-	IIIB	cytopathic effect / absorbance	-	CEM-SS	>10 µM
COC(=O)C(=O)N1CCC[C@H]1C(=O)N[C@H](Cc1ccccc1)C(=O)NCCCc1ccc(OCC(=O)N[C@@H](CC(N)=O)C(=O)N[C@@H](Cc2ccccc2)[C@H](O)C(=O)N2CCC[C@H]2C(=O)NC(C)(C)C)cc1	EC50	-	-	-	-	-	>100 µg/mL
CCCCCCCCCCCCCCCCCCCCCCOCC(C)(COCCCCCCCCCCCCCCCCCCCCCC)CO[C@]1(C(=O)O)C[C@H](OS(=O)(=O)O)[C@@H](NC(C)=O)[C@H]([C@H](OS(=O)(=O)O)[C@@H](COS(=O)(=O)O)OS(=O)(=O)O)O1	EC50	-	MN	RT activity	-	H9	2 µg/mL
Cc1cn([C@H]2C=C[C@@H](CO)O2)c(=O)[nH]c1=O	EC50	-	RD 03-RT-41L 210W 215C Recombinant	cytopathic effect / MTT	-	MT-4	0.31 µM
O=C1Cc2cc(-c3csc4ccccc34)ccc2C(=O)N1O	EC50	-	IIIB	cytopathic effect / absorbance	-	CEM-SS	>10 µM
CN(C)c1ccc(-n2nnnc2SCC(=O)Nc2ccccc2[N+](=O)[O-])c2ccccc12	EC95	-	-	p24	-	MT-4	<10 µM

Repeating the final 9 entries:

{"SMILES": "N=C1Sc2ccccc2C2=NCCCN12", "endpoint": "EC50", "strain": "RU132", "method": "β-galactosidase", "cells": "PBMC", "result": "0.2 µM"}
{"SMILES": "Cc1cc(C)cc(S(=O)(=O)c2c(C(=O)NCCO)[nH]c3ccc(Cl)cc23)c1", "endpoint": "EC50", "strain": "IIIB", "method": "cytopathic effect / MTT", "cells": "MT-4", "result": "0.0008 µM"}
{"SMILES": "COC(=O)[C@@H](NP(=O)(N[C@H](C(=O)OC)C(C)C)OC[C@H]1O[C@@H](n2cc(C)c(=O)[nH]c2=O)C[C@@H]1N=[N+]=[N-])C(C)C", "endpoint": "EC50", "strain": "RF", "method": "antigen", "cells": "C8166", "result": "0.1 µM"}
{"SMILES": "O=C1Cc2c(cccc2-c2ccc(F)cc2F)C(=O)N1O", "endpoint": "EC50", "strain": "IIIB", "method": "cytopathic effect / absorbance", "cells": "CEM-SS", "result": ">10 µM"}
{"SMILES": "COC(=O)C(=O)N1CCC[C@H]1C(=O)N[C@H](Cc1ccccc1)C(=O)NCCCc1ccc(OCC(=O)N[C@@H](CC(N)=O)C(=O)N[C@@H](Cc2ccccc2)[C@H](O)C(=O)N2CCC[C@H]2C(=O)NC(C)(C)C)cc1", "endpoint": "EC50", "result": ">100 µg/mL"}
{"SMILES": "CCCCCCCCCCCCCCCCCCCCCCOCC(C)(COCCCCCCCCCCCCCCCCCCCCCC)CO[C@]1(C(=O)O)C[C@H](OS(=O)(=O)O)[C@@H](NC(C)=O)[C@H]([C@H](OS(=O)(=O)O)[C@@H](COS(=O)(=O)O)OS(=O)(=O)O)O1", "endpoint": "EC50", "strain": "MN", "method": "RT activity", "cells": "H9", "result": "2 µg/mL"}
{"SMILES": "Cc1cn([C@H]2C=C[C@@H](CO)O2)c(=O)[nH]c1=O", "endpoint": "EC50", "strain": "RD 03-RT-41L 210W 215C Recombinant", "method": "cytopathic effect / MTT", "cells": "MT-4", "result": "0.31 µM"}
{"SMILES": "O=C1Cc2cc(-c3csc4ccccc34)ccc2C(=O)N1O", "endpoint": "EC50", "strain": "IIIB", "method": "cytopathic effect / absorbance", "cells": "CEM-SS", "result": ">10 µM"}
{"SMILES": "CN(C)c1ccc(-n2nnnc2SCC(=O)Nc2ccccc2[N+](=O)[O-])c2ccccc12", "endpoint": "EC95", "method": "p24", "cells": "MT-4", "result": "<10 µM"}

ECn is the concentration giving n% inhibition of infection, replication or growth. Conditions beyond the fields shown may differ between rows. Blank or dashed fields: not listed here.